Experimental data taken from ChEMBL document CHEMBL1649456 (Antimicrob Agents Chemother, 2009).
The source made the active and inactive calls.

Legend:
[1] = tested on: Coxiella burnetii; assay: Bactericidal activity against compound-resistant Coxiella burnetii Q212 obtained from patient with acute Q fever infected in african green monkey Vero cells assessed as decrease in bacterial titer at 4 ug/ml after 24 hrs by shell vial assay
[2] = tested on: Coxiella burnetii; assay: Bactericidal activity against compound-resistant Coxiella burnetii isolate CP5 obtained from patient with acute Q fever infected in african green monkey Vero cells assessed as decrease in bacterial titer at 4 ug/ml after 24 hrs by shell vial assay
[3] = tested on: Coxiella burnetii; assay: Bactericidal activity against compound-resistant Coxiella burnetii isolate CP6 obtained from patient with acute Q fever infected in african green monkey Vero cells assessed as decrease in bacterial titer at 4 ug/ml after 24 hrs by shell vial assay
[4] = tested on: Coxiella burnetii; assay: Bactericidal activity against compound-resistant Coxiella burnetii isolate CP1 obtained from patient with acute Q fever infected in african green monkey Vero cells assessed as decrease in bacterial titer at 4 ug/ml after 24 hrs by shell vial assay
[5] = tested on: Coxiella burnetii; assay: Bactericidal activity against compound-resistant Coxiella burnetii isolate CP8 obtained from patient with acute Q fever infected in african green monkey Vero cells assessed as decrease in bacterial titer at 4 ug/ml after 24 hrs by shell vial assay
[6] = tested on: Coxiella burnetii; assay: Bactericidal activity against compound-resistant Coxiella burnetii isolate CP2 obtained from patient with acute Q fever infected in african green monkey Vero cells assessed as decrease in bacterial titer at 4 ug/ml after 24 hrs by shell vial assay
[7] = tested on: Coxiella burnetii; assay: Bactericidal activity against compound-resistant Coxiella burnetii isolate CP7 obtained from patient with acute Q fever infected in african green monkey Vero cells assessed as decrease in bacterial titer at 4 ug/ml after 24 hrs by shell vial assay
[8] = tested on: Coxiella burnetii; assay: Bactericidal activity against compound-resistant Coxiella burnetii isolate CP4 obtained from patient with acute Q fever infected in african green monkey Vero cells assessed as decrease in bacterial titer at 4 ug/ml after 24 hrs by shell vial assay
[9] = tested on: Coxiella burnetii; assay: Bactericidal activity against compound-resistant Coxiella burnetii Nine-Mile obtained from patient with acute Q fever infected in african green monkey Vero cells assessed as decrease in bacterial titer at 4 ug/ml after 24 hrs by shell vial assay
[10] = tested on: Coxiella burnetii; assay: Bactericidal activity against compound-resistant Coxiella burnetii isolate CP3 obtained from patient with acute Q fever infected in african green monkey Vero cells assessed as decrease in bacterial titer at 4 ug/ml after 24 hrs by shell vial assay

Measured: Activity

CN(C)c1cc(NC(=O)CNC(C)(C)C)c(O)c2c1C[C@H]1C[C@H]3[C@H](N(C)C)C(O)=C(C(N)=O)C(=O)[C@@]3(O)C(O)=C1C2=O [TIGECYCLINE]
inactive: all assays above
